In the test the target is T1, hTom70 ([…]) lacking the transmembrane domain (human).
T1 construct: also called Translocase of Outer Membrane 70
The experiment in a line: fluorescence polarisation. The settings on record: both partners purified.

B1: Orf9b ∆91–97 (domain or fragment)
chain: not shown
notes: also called truncated Orf9b; 'obligate' monomer
Turning to B1, the binding result is given as “binds”.

Values taken from article PMC12443476 (eLife, 2025).
